Pooled drug test results. Numbers come from NIAID ChemDB, via PubChem.

Common to all: cytotoxicity tests; cell line: PBL; read-out: CC50

Neighbouring rows are from separate reports.

structure	read by	result
CC(C)C[C@H](NC(=O)[C@H](Cc1ccccc1)NC(=O)CNC(=O)CNC(=O)[C@@H](N)Cc1ccc(O)cc1)C(=O)N[C@@H]1O[C@H](CO)[C@@H](O)[C@H](O)[C@H]1O	-	>140 µM
C[C@@H](Cn1cnc2c(N)ncnc21)OCP(=O)(O)O	-	>300 µM
CC(=O)N(O)CCCCCNC(=O)CCC(=O)N(O)CCCCCNC(=O)CCC(=O)N(O)CCCCCN	-	30–100 µM
C[C@]12CC[C@H](O)CC1=CC[C@@H]1[C@@H]2CC[C@]2(C)C(=O)CC[C@@H]12	-	>100 µM
Nc1ccn([C@@H]2O[C@H](CO)C[C@@H]2F)c(=O)n1	-	11 µg/mL
CCOCn1c(Cc2ccccc2)c(C(C)C)c(=O)[nH]c1=O	-	95 µM
CCc1cc(NCc2nc3c(Cl)ccc(Cl)c3o2)c(=O)[nH]c1C	-	>60 µM
O=C1CN=C(c2ccc[nH]2)c2cc(Cl)ccc2N1	-	120 µM
CC[C@H](C)C=C(C)/C=C/C1=CC2=C(Cl)C(=O)[C@](C)(O)[C@H](CC(C)=O)C2=CO1	-	>25 µM
O=c1c2ccccc2n2nnc3ccc(NCCCN4CCN(CCCNc5ccc6nnn7c8ccccc8c(=O)c5c67)CC4)c1c32	-	>1 µM
Nc1ncnc2c1ncn2CC(CF)OCP(=O)(O)O	-	>500 µM
CC(=O)c1c(O)c(C)c(O)c(Cc2c(O)c3c(c(C(=O)/C=C/c4ccccc4)c2O)OC(C)(C)C=C3)c1O	ATP / luminescence	4.244 µM
O=C(O)c1cc(O)cc(O)c1N=Nc1ccc(/C=C/c2ccc(N=Nc3c(O)cc(O)cc3C(=O)O)cc2S(=O)(=O)O)c(S(=O)(=O)O)c1	-	125 µg/mL
COc1ccc2c(c1)N(C(=O)OC(C)C)[C@@H](CSC)C(=S)N2	-	25 µM
CC(=O)O[C@@H]1O[C@H](COC(=O)[C@H](CC(C)C)NC(=O)[C@H](Cc2ccccc2)NC(=O)CNC(=O)CNC(=O)[C@@H](N)Cc2ccc(O)cc2)[C@@H](OC(C)=O)[C@H](OC(C)=O)[C@H]1OC(C)=O	-	>140 µM
COc1ccc(C(=O)N2CCN(c3ccc4c(c3)CCC(=O)N4)CC2)cc1OC	-	>100 µg/mL
CCN(CC)C(=O)OCC1CN(C(=O)c2cc(OC)c(OC)c(OC)c2)CCN1C(=O)c1cc(OC)c(OC)c(OC)c1	trypan blue	280 µM
Nc1ncnc2c1ncn2[C@@H]1CC[C@@H](O)[C@H]1O	-	0.023 µM
COC(=O)[C@H](C)NP(=O)(OC[C@@H]1C=C[C@H](n2cnc3c(N)ncnc32)O1)Oc1ccccc1	-	5.2 µM
CCOCn1c(Sc2cc(C)cc(C)c2)c(CC)c(=O)[nH]c1=S	-	33 µM
Nc1ccn([C@H]2CC[C@@H](CO)O2)c(=O)n1	-	292 µM
CC(C)C[C@H](NC(=O)[C@H](Cc1ccccc1)NC(=O)CNC(=O)CNC(=O)[C@@H](N)Cc1ccc(O)cc1)C(=O)O[C@@H]1O[C@H](CO)[C@@H](O)[C@H](O)[C@H]1O	-	>140 µM
NC(=O)c1cccc(N=O)c1	-	>50 µM
NC(=O)c1ncn([C@@H]2O[C@H](CO)[C@@H](O)[C@H]2O)n1	-	>20 µM
CC(C)=CCN1Cc2cccc3[nH]c(=S)n(c23)C[C@@H]1C	-	800 µM
CCN(CC)CCCC(C)Nc1ccnc2cc(Cl)ccc12	-	>100 µM
C1CNCCNCCCN(CCCN2CCCNCCNCCCNCC2)CCNC1	-	>1865 µM
COC(=O)[C@H](C)NP(=O)(OC[C@@H]1CC[C@H](n2cnc3c(N)ncnc32)O1)Oc1ccccc1	-	4.6 µM
CCCCC#CCSc1ccccc1OC(C)=O	-	100–200 µM
O=c1[nH]cnc2c1ncn2[C@H]1CC[C@@H](CO)O1	-	>250 µM
CC(C)[C@H](NC(=O)N(C)Cc1ccccn1)C(=O)N[C@@H](Cc1ccccc1)[C@H](O)[C@H](O)[C@H](Cc1ccccc1)NC(=O)[C@@H](NC(=O)N(C)Cc1ccccn1)C(C)C	-	100 µM

Repeating the first 3 entries:

structure	read by	result
CC(C)C[C@H](NC(=O)[C@H](Cc1ccccc1)NC(=O)CNC(=O)CNC(=O)[C@@H](N)Cc1ccc(O)cc1)C(=O)N[C@@H]1O[C@H](CO)[C@@H](O)[C@H](O)[C@H]1O	-	>140 µM
C[C@@H](Cn1cnc2c(N)ncnc21)OCP(=O)(O)O	-	>300 µM
CC(=O)N(O)CCCCCNC(=O)CCC(=O)N(O)CCCCCNC(=O)CCC(=O)N(O)CCCCCN	-	30–100 µM

CCn: concentration that lowers growth or viability of the cells by n%. Two numbers with a dash give a range or band. An empty or dashed field is not shown.